Anti-infective test results gathered from many reports (values: NIAID ChemDB through PubChem).

Shared fields: whole-cell or culture tests; agent: Respiratory syncytial virus; method: cytopathic effect; measure: EC50

Blank or dashed fields: not listed here.

smiles | cell line | strain or isolate | result
CC(C)CCn1c(Cn2c(=O)n(Cc3ccccc3C(=O)N[C@H](CC(=O)O)C(=O)O)c3ccccc32)nc2ccccc21 | HEP-2 | Long (subtype A) | 0.01 µM
NC(=O)c1[nH]nc([C@@H]2O[C@H](CO)[C@@H](O)[C@H]2O)c1O | HeLa | 58-8 | 0.09 µg/mL
C[C@H](O)[C@@H]1C[C@H](Cn2nnc3c(=O)[nH]cnc32)C1(C)C | HeLa |  | >200 µg/mL
Nc1ncnc2c1ncn2CC(O)C(=O)O | HeLa | LONG | >500 µg/mL
CC(C)CCCC(C)C1CCC2C3CC=C4CC(O)CCC4(C)C3CCC12C | HeLa |  | >200 µM
c1ccc2c(c1)CSSC2 | HeLa | LONG | 3.1 µM
CC1(C)[C@H](CO)C[C@@H]1Cn1cnc2c(N)nc(N)nc21 | HeLa |  | 3 µg/mL
CC(C)CCCC(C)C1CCC2C3CC=C4CC(OC(=O)Nc5ccc(S(=O)(=O)O)c6cccc(S(=O)(=O)O)c56)CCC4(C)C3CCC12C | HeLa |  | 7 µM
C[C@H](O)[C@@H]1C[C@H](CCn2cnc3c(=O)[nH]cnc32)C1(C)C | HeLa |  | 3 µg/mL
Nc1ncnc2c1ncn2C[C@@H](CO)OCP(=O)(O)O | HeLa | LONG | >125 µg/mL
CC(C)CCCC(C)C1CCC2C3CC=C4CC(OC(=O)Cl)CCC4(C)C3CCC12C | HeLa |  | >200 µM
C[C@H](O)[C@@H]1C[C@H](CCn2cnc3c(N)ncnc32)C1(C)C | HeLa |  | >400 µg/mL
CC(C)CCn1c(Cn2c(=O)n(Cc3ccc(P(=O)(O)O)cc3)c3ccccc32)nc2ccccc21 | HEP-2 | Long (subtype A) | 0.03 µM
NC(=O)c1ncn([C@@H]2O[C@H](CO)[C@@H](O)[C@H]2O)n1 | VERO | LONG | >200 µg/mL
CN(C)CCn1c(Cn2c(=O)n(CCN(C)C)c3ccccc32)nc2ccccc21 | HEP-2 | Long (subtype A) | 0.4 µM
CC(C)CCCC(C)C1CCC2C3CC=C4CC(OC(=O)Nc5ccc(S(=O)(=O)O)c6ccccc56)CCC4(C)C3CCC12C | HeLa |  | 6 µM
Nc1ccn([C@@H]2C[C@H](CO)[C@@H](O)[C@H]2O)c(=O)n1 | HeLa | 58-8 | 35.5 µg/mL
CC(C)CCn1c(Cn2c(=O)n(Cc3ccc(C(=O)N[C@@H](CC(=O)O)C(=O)O)cc3)c3ccccc32)nc2ccccc21 | HEP-2 | Long (subtype A) | 0.01 µM
Nc1cc2[nH]cnc2c(=O)[nH]1 | HeLa | S-8 | 1.8 µg/mL
CCOP(=O)(O)c1ccc(Cn2c(=O)n(Cc3nc4ccccc4n3CCC(C)C)c3ccccc32)cc1 | HEP-2 | Long (subtype A) | 0.05 µM

Again, the opening 3 rows:

| smiles | cell line | strain or isolate | result |
|---|---|---|---|
| CC(C)CCn1c(Cn2c(=O)n(Cc3ccccc3C(=O)N[C@H](CC(=O)O)C(=O)O)c3ccccc32)nc2ccccc21 | HEP-2 | Long (subtype A) | 0.01 µM |
| NC(=O)c1[nH]nc([C@@H]2O[C@H](CO)[C@@H](O)[C@H]2O)c1O | HeLa | 58-8 | 0.09 µg/mL |
| C[C@H](O)[C@@H]1C[C@H](Cn2nnc3c(=O)[nH]cnc32)C1(C)C | HeLa |  | >200 µg/mL |

ECn: concentration that inhibits the pathogen or its effect by n%. Lines come from different laboratories, so protocols vary.